## Fitness of HIV-1 LAI Vif variants in SupT1-APOBEC3G cells

Source: Langley et al. 2025, preprint (doi:10.1101/2025.10.20.683452), supplementary data.

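Pooled viruses with one designed change each in Vif went through two 72 h rounds in SupT1 cells expressing APOBEC3G. Each of three replicates was sequenced after round two and set against the merged round-one pool. Changes do not touch integrase, since the pol overlap was removed.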

Vif of LAI (a laboratory-adapted subtype B strain), residues 12-115; positions count from the first residue of the whole protein:
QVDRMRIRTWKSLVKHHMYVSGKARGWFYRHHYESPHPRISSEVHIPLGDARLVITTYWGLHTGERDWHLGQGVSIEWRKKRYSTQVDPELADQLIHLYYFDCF

Values are log2 enrichment relative to wild type (0); lower means weaker defence against APOBEC3G and poorer growth.
A change reads original residue, position, new residue.
The median of three replicates is given, with the replicates in brackets.
Input reads are the counts in the merged round-one pool, before selection.
Not every substitution is listed.
Positive scores are uncertain; some enriched variants did not exclude APOBEC3G in a separate test.
Replicates agree only moderately (rank correlation about 0.4-0.65); scores from under about 50 input reads tend to be too high.

change	input reads	log2 enrichment (median)
K22A	902	-1.82 (-1.82 -3.00 1.35)
K22C	1718	-1.98 (-1.26 -3.85 -1.98)
K22E	86	-0.02 (-0.10 4.03 -0.02)
K22G	538	-1.35 (-1.79 2.04 -1.35)
K22H	434	-2.90 (-2.42 -2.93 -2.90)
K22I	24	1.48 (1.48 1.50 -2.45)
K22L	31	-0.49 (-0.75 3.46 -0.49)
K22N	1958	-1.78 (-1.50 -2.72 -1.78)
K22P	357	-1.94 (-1.94 1.53 -2.07)
K22Q	51	0.18 (0.12 4.47 0.18)
K22R	1204	-1.10 (1.62 -1.96 -1.10)
K22S	34	-0.09 (0.70 -0.09 -1.36)
K22T	1031	-3.12 (-3.12 -3.41 -2.64)
K22W	1452	-0.42 (-0.42 0.05 -0.78)
K22Y	489	-0.94 (-0.32 -2.04 -0.94)
S23C	416	-2.44 (-2.36 -3.97 -2.44)
S23D	19	0.06 (2.75 0.06 -0.52)
S23E	556	-3.83 (-4.15 -3.83 -2.08)
S23F	383	-2.94 (-1.85 -4.48 -2.94)
S23G	775	1.81 (1.81 1.89 -1.15)
S23H	304	-1.70 (-1.70 -2.96 -0.65)
S23I	69	0.61 (0.61 -0.83 4.00)
S23K	82	0.18 (0.18 3.73 -0.28)
S23L	474	-0.89 (-0.89 2.03 -1.29)
S23P	47	1.47 (1.47 4.41 1.25)
S23Q	1647	0.36 (-1.15 0.36 0.40)
S23R	719	0.80 (0.80 1.05 0.49)
S23W	235	-3.15 (-2.91 -3.15 -3.38)
S23Y	864	-3.33 (-3.20 -4.72 -3.33)
L24A	459	-3.89 (-3.89 -4.12 -3.49)
L24C	522	-2.32 (-2.31 -3.87 -2.32)
L24D	1106	-2.97 (-2.43 -4.12 -2.97)
L24E	612	1.08 (1.91 1.08 -0.60)
L24F	487	-1.01 (-1.01 1.53 -1.25)
L24G	195	-2.62 (-2.17 -4.17 -2.62)
L24H	489	-2.36 (-1.65 -3.54 -2.36)
L24I	629	-2.07 (-2.41 1.54 -2.07)
L24N	129	0.91 (0.91 -0.89 5.45)
L24P	824	-3.69 (-2.66 -3.69 -3.80)
L24Q	529	-1.37 (-1.55 1.59 -1.37)
L24T	321	-2.24 (-2.23 -5.37 -2.24)
L24V	894	-2.52 (-2.52 -2.27 -3.37)
L24W	527	-0.18 (-0.18 1.56 -1.73)
L24Y	323	-2.00 (-2.00 -3.18 -1.63)
V25A	319	-2.45 (-2.22 -4.90 -2.45)
V25C	46	0.56 (0.56 4.26 0.33)
V25K	355	-0.95 (-0.47 -2.44 -0.95)
V25L	108	-4.12 (-4.12 -4.57 -1.79)
V25N	391	-3.64 (-1.88 -5.19 -3.64)
V25Q	30	-0.70 (-0.70 -2.00 2.73)
V25W	126	0.39 (4.90 -1.09 0.39)
K26A	715	-1.42 (-1.07 -2.41 -1.42)
K26C	405	-3.03 (-2.86 -4.13 -3.03)
K26F	35	2.77 (2.77 4.18 0.73)
K26G	374	-1.16 (-1.27 1.70 -1.16)
K26H	810	-1.56 (-1.47 -3.54 -1.56)
K26I	524	-1.88 (-1.88 1.05 -2.10)
K26L	766	-1.68 (-1.17 -3.07 -1.68)
K26N	140	-0.67 (-0.80 -0.67 -0.20)
K26R	89	0.29 (0.06 0.29 1.36)
K26S	144	3.33 (0.75 3.33 3.66)
K26W	813	-3.33 (-3.33 -4.09 -2.97)
K26Y	431	-0.91 (-0.91 -2.51 -0.90)
H27C	877	0.30 (2.39 0.30 -0.87)
H27F	29	1.87 (1.87 4.05 0.09)
H27G	477	-1.06 (2.95 -2.92 -1.06)
H27I	27	-0.70 (-0.54 -0.70 -1.03)
H27L	417	-3.08 (-1.80 -4.18 -3.08)
H27N	350	0.27 (0.27 -0.54 1.31)
H27P	1428	-1.09 (-0.66 -2.38 -1.09)
H27Q	233	-1.75 (-1.75 -1.52 -2.89)
H27R	19	2.28 (0.70 3.73 2.28)
H27T	427	-0.79 (-0.79 -2.39 -0.64)
H27W	221	-2.32 (-2.32 -2.78 -1.92)
H27Y	910	-1.15 (-1.34 0.52 -1.15)
H28A	497	-1.91 (-2.20 1.25 -1.91)
H28C	95	1.30 (1.30 4.43 0.56)
H28D	936	-2.68 (-2.68 -3.93 -2.56)
H28E	182	-2.04 (-2.04 -2.33 -1.08)
H28F	63	0.59 (0.59 4.47 -0.34)
H28G	443	-2.66 (-2.66 -4.23 -1.96)
H28K	165	2.75 (4.23 2.75 0.10)
H28L	729	-0.50 (-0.50 0.87 -0.67)
H28P	1092	1.38 (2.23 -0.48 1.38)
H28Q	394	2.37 (2.37 2.68 -0.33)
H28R	468	-3.97 (-3.40 -3.97 -4.36)
H28S	840	-0.78 (-0.78 0.35 -1.12)
H28T	67	0.75 (0.29 3.85 0.75)
H28V	162	0.95 (0.37 2.71 0.95)
H28W	561	-1.18 (-1.18 -3.12 1.52)
M29A	733	-1.56 (-1.19 -3.15 -1.56)
M29D	768	-1.64 (-1.64 0.20 -1.86)
M29E	463	-3.03 (-3.03 -4.13 -2.43)
M29F	442	1.01 (0.21 1.16 1.01)
M29G	1290	-1.82 (-1.41 -3.58 -1.82)
M29H	365	-1.48 (-0.57 -2.38 -1.48)
M29I	433	2.38 (3.34 -0.88 2.38)
M29K	840	1.74 (1.74 2.12 -0.85)
M29L	439	-2.66 (-2.66 -2.85 -1.75)
M29N	331	-1.95 (-1.47 -3.82 -1.95)
M29Q	135	1.84 (1.84 4.12 0.14)
M29R	485	-3.29 (-3.10 -3.42 -3.29)
M29S	78	0.89 (0.89 4.10 0.40)
M29T	431	-1.72 (-2.01 0.58 -1.72)
M29V	79	-0.92 (0.04 -0.92 -0.97)
M29W	348	-3.47 (-3.47 -4.10 -3.46)
Y30A	236	0.86 (0.86 -0.85 4.73)
Y30C	1173	-3.48 (-3.48 -4.28 -2.87)
Y30D	33	2.26 (0.37 2.55 2.26)
Y30E	738	-0.83 (-0.83 0.04 -0.95)
Y30F	860	-1.14 (-1.14 -2.28 1.88)
Y30G	348	-0.75 (-0.39 -2.61 -0.75)
Y30H	396	-0.79 (-0.79 -0.24 -1.30)
Y30I	1337	-1.87 (-1.87 -0.09 -2.26)
Y30K	91	0.36 (0.36 3.51 -0.41)
Y30P	463	-1.30 (-0.50 -3.02 -1.30)
Y30Q	98	1.37 (1.37 3.72 0.10)
Y30R	61	-0.14 (-0.14 4.09 -0.94)
Y30V	512	-1.07 (-0.88 -2.44 -1.07)
Y30W	332	-2.48 (-1.10 -4.05 -2.48)